Values from PubChem BioAssay AID624099 (ICCB-Longwood, 2012)
Here is a random part of about 21,000 deposited reagents. 497 of them (2.4%) count as active. 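Higher z means weaker E2 silencing; only reporter increases were scored, and knock-downs that hurt cell survival may mask genuine repressor factors.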 Reagent sequences are not shown.

- Purpose: 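Host factors E2 relies on to silence an HPV18 LCR reporter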 (primary screen)
- Cells: human C33A cervical carcinoma cells (HPV-negative) stably expressing BPV1 E2 and an HPV18 LCR luciferase reporter
- Reagents: siRNA pool against human genes, 40 nM
- Timing: 72 h
- Measured: 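HPV18 LCR reporter light per well, converted to plate-wise z-scores that exclude control wells, and averaged over triplicate plates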
- Scale: mean z-score and z-score: higher = stronger reporter signal, weaker E2 silencing
- Active means: 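Mean z ≥ 2 together with z ≥ 2 in two or more of the three replicates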

gene | PubChem SID | mean z-score | z-score, replicate A | z-score, replicate B | z-score, replicate C | outcome
FLT4 (GeneID 2324) | SID56478518 | -0.52 | -0.43 | -0.58 | -0.54 | inactive
ZFP14 (GeneID 57677) | SID134328900 | 0.64 | 0.93 | 0.81 | 0.19 | inactive
DLEU2 (GeneID 8847) | SID134323808 | 0.16 | 0.26 | 0.04 | 0.17 | inactive
EMD (GeneID 2010) | SID134315389 | -0.06 | -0.2 | -0.04 | 0.06 | inactive
SIDT1 (GeneID 54847) | SID134324329 | -0.91 | -1.03 | -0.9 | -0.79 | inactive
PPP1R12C (GeneID 54776) | SID134317984 | 0.48 | 0.51 | 0.49 | 0.44 | inactive
ZSCAN23 (GeneID 222696) | SID134326260 | 1.85 | 1.69 | 2.01 | 1.97 | inactive

Only “z-score, replicate A”, for 3 of the entries above:
DLEU2 (GeneID 8847) [SID134323808]: 0.26
EMD (GeneID 2010) [SID134315389]: -0.2
SIDT1 (GeneID 54847) [SID134324329]: -1.03

The listing continues:
gene | PubChem SID | mean z-score | z-score, replicate A | z-score, replicate B | z-score, replicate C | outcome
EIF4G3 (GeneID 8672) | SID134323313 | -0.38 | -0.47 | -0.25 | -0.44 | inactive
TFAP2A (GeneID 7020) | SID134311745 | -0.23 | -0.47 | -0.36 | 0.14 | inactive
DNAJC27 (GeneID 51277) | SID134314546 | 1.57 | 1.64 | 1.77 | 1.31 | inactive
HDAC11 (GeneID 79885) | SID134310344 | -0.7 | -0.68 | -0.67 | -0.75 | inactive
PRKAG2 (GeneID 51422) | SID134314417 | 1.23 | 1.51 | 1.15 | 1.02 | inactive
HIPK1 (GeneID 204851) | SID56478881 | 0.31 | -0.04 | 0.38 | 0.6 | inactive
STK38L (GeneID 23012) | SID56478644 | 0.18 | 0.35 | 0.52 | -0.32 | inactive
RPL31P8 (GeneID 253013) | SID134325647 | 0.89 | 0.71 | 1.01 | 0.94 | inactive
ARR3 (GeneID 407) | SID134323550 | 0.47 | 0.52 | 0.33 | 0.57 | inactive
LOC391770 (retired record) (GeneID 391770) | SID134327595 | 0.44 | 0.1 | 0.32 | 0.9 | inactive
HSD3BP4 (GeneID 128102) | SID134327072 | -0.44 | -0.23 | -0.58 | -0.51 | inactive
MCTS1 (GeneID 28985) | SID134324270 | -0.19 | -0.13 | -0.23 | -0.2 | inactive
LOC400849 (retired record) (GeneID 400849) | SID134329028 | -0.93 | -1 | -0.66 | -1.15 | inactive
PARVB (GeneID 29780) | SID134320089 | -1.02 | -0.71 | -0.91 | -1.44 | inactive
GLUD2 (GeneID 2747) | SID134313903 | -0.44 | -0.45 | -0.48 | -0.38 | inactive
TPD52L1 (GeneID 7164) | SID134323348 | 0.15 | 0.2 | 0.27 | -0.02 | inactive
